Results of unrelated studies side by side (data: NIAID ChemDB).

Common to all: tests in culture; organism: Mycobacterium tuberculosis

Inhibition is in % at the dose shown (toxicity tests: loss of growth or viability). An empty or dashed field is not shown. Rows are shuffled and stem from different studies. MIC bound comes from a single tested concentration.

| structure | strain | read by | endpoint | dose | result |
|---|---|---|---|---|---|
| CCCCCCCCCCCNCCNCCc1ccc(OC)c(OC)c1 | - | - | MIC | - | 12.5 µM |
| C=C1C(=O)OC2[C@H]3O[C@]3(C)CC/C=C(/C)[C@H](O)C[C@@H]12 | H37Rv | BACTEC | inhibition | 12.5 µg/mL | 12% |
| c1ccc([C@H]2C[C@@H]2NCCNC23CC4CC(CC(C4)C2)C3)cc1 | - | - | MIC | - | 25 µM |
| Nc1ccc(S(=O)(=O)O)cc1 | H37Rv | - | MIC | - | >100 µg/mL |
| O=C(Nc1cccc2c1C(=O)c1cccc(Nc3ccc(NC(=O)c4ccccc4)c4c3C(=O)c3ccccc3C4=O)c1C2=O)c1ccccc1 | H37Rv | BACTEC | inhibition | 12.5 µg/mL | -3% |
| O=C(CC(=O)c1ccc(Cl)cc1)c1ccc(Cl)cc1 | H37Rv | - | MIC | - | >100 µg/mL |
| [O-][n+]1c2ccccc2nc2ccccc21 | H37Rv | BACTEC | inhibition | 12.5 µg/mL | 98% |
| COc1ccc(C(=O)O)cc1OC | H37Rv | - | MIC | - | >100 µg/mL |
| c1ccc(C(CCNCCNCC23CC4CC(CC(C4)C2)C3)c2ccccc2)cc1 | - | - | MIC | - | 6.25 µM |
| c1ccc2c(c1)sc1ccccc12 | H37Rv | - | MIC | - | >100 µg/mL |
| CC(NCCNCc1ccccc1)c1cccc2ccccc12 | - | - | MIC | - | 50 µM |
| NNC(=O)[C@@H](O)[C@H](O)C(=O)NN | H37Rv | BACTEC | MIC bound | - | >12.5 µg/mL |
| CC(CNCCC(c1ccccc1)c1ccccc1)NCCC1=CCCCC1 | - | - | MIC | - | 12.5 µM |
| CCOc1ccccc1CNCCNCc1ccccc1Cl | - | - | MIC | - | 50 µM |
| CNC(=O)Nc1ccncc1 | H37Rv | resazurin | inhibition | 6.25 µg/mL | -12% |
| CC(C)c1ccc2c(c1)CC[C@H]1[C@](C)(CNCCN[C@@H]3C[C@@H]4C[C@H]([C@H]3C)C4(C)C)CCC[C@]21C | - | - | MIC | - | 50 µM |
| Brc1ccc2oc3ccccc3c2c1 | H37Rv | - | MIC | - | >100 µg/mL |
| O=c1ssc2ccccc12 | H37Rv | BACTEC | MIC | - | ≥12.5 µg/mL |
| [Cl-].[Cl][Fe]([Cl])[Cl].c1ccc(-c2cc(-c3ccccc3)[o+]c(-c3ccccc3)c2)cc1 | H37Rv | - | MIC | - | >100 µg/mL |
| CC(C)=CCC/C(C)=C/CNCCN[C@H]1C[C@H]2CC[C@]1(C)C2(C)C | - | - | MIC | - | 12.5 µM |
| CCOC(=O)Nc1ccc([As]=O)c(O)c1 | H37Rv | - | MIC | - | >100 µg/mL |
| CC(=O)c1c(O)c(C)c(O)c2c1OC1=CC(=O)/C(=C(\C)N)C(=O)C12C | H37Rv | BACTEC | inhibition | 12.5 µg/mL | 30% |
| Clc1ccc(Cl)s1 | H37Rv | - | MIC | - | 100 µg/mL |
| Clc1nc2nc[nH]c2nc1Cl | H37Rv | BACTEC | inhibition | 12.5 µg/mL | 4% |
| CC(Cc1ccc(Cl)cc1)NCCNCCCCc1ccccc1 | - | - | MIC | - | 50 µM |
| CC1(C)N=CN=C(N)N1c1ccc(CCC(=O)Nc2ccc(S(=O)(=O)F)cc2)c(Cl)c1.CCS(=O)(=O)O | H37Rv | BACTEC | MIC bound | - | ≤12.5 µg/mL |
| Nc1cc(N)c(O)cc1O | H37Rv | - | MIC | - | 100 µg/mL |
| CCOC([O-])=N/C(C)=N/[n+]1ccccc1 | H37Rv | BACTEC | MIC bound | - | >12.5 µg/mL |
| C=CCNc1nc(N)nc(Nc2ccccc2)n1 | H37Rv | - | MIC | - | >100 µg/mL |
| CCCCC(CC)CN1CN(CC(CC)CCCC)CC(C)(NCCNCC2CCCO2)C1 | - | - | MIC | - | 12.5 µM |
| C/C(=N\NC(=O)c1ccccc1S(N)(=O)=O)C(CN1CCCCC1)C(C1=C(O)C2C=CC=CC2OC1=O)c1ccccc1.Cl | H37Rv | BACTEC | inhibition | 12.5 µg/mL | 13% |
| CCCCC(CC)CN1CN(CC(CC)CCCC)CC(C)(NCCNCC2(O)CCCCC2)C1 | - | - | MIC | - | 6.25 µM |
| FC(F)(F)c1ccc(CNCCNC23CC4CC(CC(C4)C2)C3)cc1 | - | - | MIC | - | >50 µM |
| OCCN(CCO)C(=S)S | H37Rv | BACTEC | MIC bound | - | >12.5 µg/mL |
| O=c1[nH]c(=O)n(-c2ccccc2)[nH]1 | H37Rv | - | MIC | - | >100 µg/mL |
| CCOC(=O)c1nc2ccccc2nc1Nc1ccc(OC)c(OC)c1 | H37Rv | BACTEC | inhibition | 12.5 µg/mL | 5% |
| O=Cc1ccccc1O | H37Rv | - | MIC | - | >100 µg/mL |
| COc1ccc(NC(=O)NNC(=O)CCCC(=O)NNC(=O)Nc2ccc(OC)cc2)cc1 | H37Rv | BACTEC | MIC bound | - | >12.5 µg/mL |
| CCOC(=O)C1CSC(CCCOCc2ccccc2)C1=O | H37Rv | - | MIC | - | 50 µg/mL |
| Nc1nc(N)nc(-c2ccc([N+](=O)[O-])o2)n1 | H37Rv | - | MIC | - | 6.3 µg/mL |
| CC(C)N=C(N)/N=C(\N)Nc1ccc(Cl)cc1 | H37Rv | - | MIC | - | >100 µg/mL |
| CCCCC(CC)CN1CN(CC(CC)CCCC)CC(C)(NCCNC2CCCCCCC2)C1 | - | - | MIC | - | 12.5 µM |
| CCCCNCC(O)c1ccccc1 | H37Rv | - | MIC | - | >100 µg/mL |
| COc1ccc(CNCCNCCC2=CCCCC2)cc1OC | - | - | MIC | - | 50 µM |
| C[C@H](NCCNC1CCCCCCC1)C1CCCCC1 | - | - | MIC | - | 50 µM |

A second listing of 5 rows from above:

structure | strain | read by | endpoint | dose | result
CNC(=O)Nc1ccncc1 | H37Rv | resazurin | inhibition | 6.25 µg/mL | -12%
CCCCC(CC)CN1CN(CC(CC)CCCC)CC(C)(NCCNCC2CCCO2)C1 | - | - | MIC | - | 12.5 µM
Clc1nc2nc[nH]c2nc1Cl | H37Rv | BACTEC | inhibition | 12.5 µg/mL | 4%
O=C(Nc1cccc2c1C(=O)c1cccc(Nc3ccc(NC(=O)c4ccccc4)c4c3C(=O)c3ccccc3C4=O)c1C2=O)c1ccccc1 | H37Rv | BACTEC | inhibition | 12.5 µg/mL | -3%
c1ccc(C(CCNCCNCC23CC4CC(CC(C4)C2)C3)c2ccccc2)cc1 | - | - | MIC | - | 6.25 µM